Anti-infective test results gathered from many reports (values: NIAID ChemDB through PubChem).

Shared fields: whole-cell or culture tests; species: HIV-1

ECn is the concentration giving n% inhibition of infection, replication or growth.

compound | endpoint | changes | strain | method | cells | result
O=c1ccn([C@H]2C=C(CO)CO2)c(=O)[nH]1 | EC50 | - | - | - | MT-4 | >100 µg/mL
CC(C)C1=C2[C@H]3CC[C@@H]4[C@@]5(C)CC[C@H](OC(=O)[C@H]6C[C@@H](C(=O)O)C6(C)C)C(C)(C)[C@@H]5CC[C@@]4(C)[C@]3(C)CC[C@@]2(CC(=O)NCc2ccc(Cl)cc2OCCN2CCOCC2)CC1=O | EC50 | - | 92HT599 | p24 / ELISA | MT-2 | <1 µM
COc1cc(C=O)c(-c2c(C=O)cc(OC)c(OC)c2OC)c(OC)c1OC | EC50 | - | IIIB | p24 | H9 | 5 µM
COC1=C(C2=C(C3=C(O)C(=O)c4ccccc4C3=O)C(=O)c3ccccc3C2=O)C(=O)c2ccccc2C1=O | EC50 | - | IIIB | cytopathic effect / MTT | CEM | 43.3 µM
Cn1c(-c2ccc(F)cc2)c(N=Nc2ccc(-c3ccc(F)cc3)cc2)c(N)nc1=O | EC50 | - | IIIB | MTT | MT-4 | >66.6 µM
CC(C)C1=C2[C@H]3CC[C@@H]4[C@@]5(C)CC[C@H](OC(=O)[C@H]6C[C@@H](C(=O)O)C6(C)C)C(C)(C)[C@@H]5CC[C@@]4(C)[C@]3(C)CC[C@@]2(CCNCc2ccncc2)CC1=O | EC50 | - | 92HT599 | p24 / ELISA | MT-2 | <1 µM
O[C@H]1OC[C@H](Cc2ccc3c(c2)OCO3)[C@H]1Cc1ccc2c(c1)OCO2 | EC50 | - | - | - | H9 | 0.85 µg/mL
CCNc1c(N=Nc2ccc(Cl)cc2)c(N)nc(=O)n1C | EC50 | - | IIIB | MTT | MT-4 | >36.72 µM
CN1c2c(-c3ccccc3)nn(CC(=O)N/N=C/c3ccc(Cl)c(Cl)c3)c2-c2ccccc2S1(=O)=O | EC90 | - | LAV-1 | RT activity | PBMC | >100 µM
C=CCOc1cc(NC(=S)c2sccc2C)ccc1Cl | EC50 | - | RF | cytopathic effect / XTT | CEM + CEM-SS | 0.235 µM
COC(=O)c1cc(OC)c(OC)c(OC)c1-c1c(C(=O)OC)cc(OC)c(OC)c1OC | EC50 | - | IIIB | p24 | H9 | >200 µM
O=C(O)[C@@H]1CCCCN1C(=O)c1ccccc1SSc1ccccc1C(=O)N1CCCC[C@H]1C(=O)O | EC50 | - | IIIB | cytopathic effect / XTT | CEM | >100 µM
COc1ccc2c(c1)C(=O)C(Cl)=C(C1=C(Cl)C(=O)c3ccccc3C1=O)C2=O | EC50 | - | IIIB | cytopathic effect / MTT | CEM | 7.1 µM
CC(C)C1=C2[C@H]3CC[C@@H]4[C@@]5(C)CC[C@H](OC(=O)[C@H]6C[C@@H](C(=O)O)C6(C)C)C(C)(C)[C@@H]5CC[C@@]4(C)[C@]3(C)CC[C@@]2([C@@H](O)CNC(=O)c2ccc(N3CCC(O)CC3)cc2)CC1=O | EC50 | - | 92HT599 | p24 / ELISA | MT-2 | <1 µM
C[C@@H](O)[C@H](NC(=O)[C@@H](N)CC(N)=O)C(=O)N[C@@H](CO)C(=O)N[C@@H](Cc1ccc(O)cc1)C(=O)NCC(=O)O | EC50 | - | LAV | RT activity | A3.01 | <0.001 µM
C=CCO/N=C/c1cc(NC(=S)c2ccoc2C)ccc1Cl | EC50 | - | IIIB | cytopathic effect / XTT | CEM + CEM-SS | 0.09 µM
CC(C)C1=C2[C@H]3CC[C@@H]4[C@@]5(C)CC[C@H](OC(=O)[C@H]6C[C@@H](C(=O)O)C6(C)C)C(C)(C)[C@@H]5CC[C@@]4(C)[C@]3(C)CC[C@@]2(CCNC(=O)c2ccc(Cl)cc2O[C@@H]2CCOC2)CC1=O | EC50 | - | 92HT599 | p24 / ELISA | MT-2 | <1 µM
COc1ccc(/C=N/NC(=O)Cn2nc(-c3ccccc3)c3c2-c2ccccc2S(=O)(=O)N3C)cc1 | EC90 | - | LAV-1 | RT activity | PBMC | 53.9 µM
Cc1cn([C@H]2C[C@H](N=[N+]=[N-])[C@@H](CO)O2)c(=O)[nH]c1=O | EC50 | - | IIIB | syncytia | C8166 | 0.0049 µM
O=C(c1ccc(F)cc1)c1ccc(-c2nc(-c3ccccc3O)[nH]c2-c2ccc(F)cc2)cc1 | EC50 | - | 89BZ167 | RT activity | PBMC | >100 µM
CC(C)C[C@@H](CO)NC(=O)c1ccccc1SSc1ccccc1C(=O)N[C@H](CO)CC(C)C | EC50 | - | IIIB | cytopathic effect / XTT | CEM | >12.4 µM
CCNc1c(N=Nc2ccc(-c3ccc(OC)c(OC)c3)cc2)c(N)nc(=O)n1C | EC50 | - | IIIB | MTT | MT-4 | >23.13 µM
CN1c2c(-c3ccccc3)nn(CC(=O)N/N=C/c3ccc(Br)cc3)c2-c2ccccc2S1(=O)=O | EC50 | - | LAV-1 | RT activity | PBMC | >100 µM
CC1(C)C(c2ccc(C(=O)O)cc2)=CC[C@]2(C)CN(C(=O)c3ccccc3-c3nc4ccc(F)c(F)c4o3)CC=C12 | EC50 | Renilla luciferase reporter Gag P373S | NL4-3 | luciferase / luminescence | MT-2 | >3 µM
CN1c2c(-c3ccccc3)nn(CC(=O)N/N=C/c3ccc(O)cc3O)c2-c2ccccc2S1(=O)=O | EC50 | - | LAV-1 | RT activity | PBMC | 3.3 µM
CC(C)C1=C2[C@H]3CC[C@@H]4[C@@]5(C)CC[C@H](OC(=O)[C@H]6C[C@@H](C(=O)O)C6(C)C)C(C)(C)[C@@H]5CC[C@@]4(C)[C@]3(C)CC[C@@]2(CCNC(=O)[C@@H]2CCCNC2)CC1=O | EC50 | - | 92HT599 | p24 / ELISA | MT-2 | <1 µM
Cc1cn([C@H]2C=C(CO)CS2)c(=O)[nH]c1=O | EC50 | - | - | - | MT-4 | >100 µg/mL
Cc1nc2c(c(C)c(C)n2CCC#N)c(-c2ccc(Cl)cc2)c1[C@H](OC(C)(C)C)C(=O)O | EC50 | - | IIIB | MTT | MT-4 | 0.00529 µM
C1CC(NC2=NCCN2)CCC(NC2=NCCN2)C1 | EC50 | - | NL4-3 | entry / fluorescence | HEK 293 | 1.85 µM
Cc1nc2c(c(C)c(C)n2Cc2ccncc2)c(-c2ccc(Cl)cc2)c1[C@H](OC(C)(C)C)C(=O)O | EC50 | - | IIIB | MTT | MT-4 | 0.00772 µM
Cc1cn([C@H]2C[C@H](N=[N+]=[N-])[C@@H](CO)O2)c(=O)[nH]c1=O | EC50 | - | IIIB | RT activity | H9 | 0.18 µg/mL
CN1c2c(-c3ccccc3)nn(CC(=O)N/N=C/c3ccccc3Br)c2-c2ccccc2S1(=O)=O | EC50 | - | LAV-1 | RT activity | PBMC | >100 µM
O=C(O)C(O)c1ccccc1 | EC50 | - | R5 clinical isolate | p24 | Macrophage | <100 µg/mL
CC(CC(=O)O)NC(=O)c1ccccc1SSc1ccccc1C(=O)NC(C)CC(=O)O | EC50 | - | IIIB | cytopathic effect / XTT | CEM | 29.9 µM
O=[N+]([O-])c1ccc(O)c(-c2nc3c4ccccc4c4ccccc4c3[nH]2)c1 | EC50 | - | 89BZ167 | RT activity | PBMC | 7.1 µM
CSCC[C@H](NC(=O)c1ccccc1SSc1ccccc1C(=O)N[C@@H](CCSC)C(=O)O)C(=O)O | EC50 | - | IIIB | cytopathic effect / XTT | CEM | 43 µM
O=c1[nH]c(=O)n([C@H]2C=C(CO)CO2)cc1F | EC50 | - | - | - | MT-4 | >100 µg/mL
Nc1ncnc2c1ncn2[C@@H]1OCC(CO)=C1F | EC50 | - | - | - | - | >100 µg/mL
CSc1ccccc1OC(C)=O | EC50 | - | BaL | p24 | PBMC | 223 µM
CC(C)[C@@H](CCC(=O)O)NC(=O)c1ccccc1SSc1ccccc1C(=O)N[C@H](CCC(=O)O)C(C)C | EC50 | - | IIIB | cytopathic effect / XTT | CEM | 4.3 µM
COc1ccc2c(c1)C(=O)C(I)=C(C1=C(O)c3ccccc3C(=O)C1=O)C2=O | EC50 | - | IIIB | cytopathic effect / MTT | CEM | 3.6 µM
COc1c(OCC=C(C)C)cc2oc(=O)ccc2c1O | EC10 | - | - | MTT | SupT1 + Sup-T1 | 20 µg/mL
Cc1ccnc2c1NC(=O)c1cccnc1N2C1CC1 | EC50 | - | IIIB | MTT | MT-4 | 0.05 µM
Cc1ccc(C2=CC(c3ccccc3)=C(c3ccccc3)C2)cc1 | EC50 | - | 89BZ167 | RT activity | PBMC | >100 µM
Cc1cn([C@H]2C[C@H](N=[N+]=[N-])[C@@H](CO)O2)c(=O)[nH]c1=O | EC50 | - | A17 | p24 | C8166 | 0.00411 µg/mL
Cc1occc1C(=S)Nc1ccc(Cl)c(C(=O)OCC2CC2)c1 | EC50 | - | IIIB | cytopathic effect / XTT | CEM + CEM-SS | 0.02 µM
CN1c2c(-c3ccccc3)nn(CC(=O)N/N=C/c3ccccc3[N+](=O)[O-])c2-c2ccccc2S1(=O)=O | EC90 | - | LAV-1 | RT activity | PBMC | >100 µM
Nc1ncnc2c1ccn2[C@H]1C=C[C@@H](CO)C1 | EC50 | - | IIIB | cytopathic effect / trypan blue | MT-4 | >200 µM
COC1=C(C2=C(Cl)C(=O)c3ccccc3C2=O)C(=O)c2ccccc2C1=O | EC50 | - | IIIB | cytopathic effect / MTT | CEM | 1.7 µM
CCCc1cc(=O)oc2c3c(c4c(c12)OC(C)(C)C=C4)O[C@H](C)C[C@@H]3O | EC50 | - | IIIB | p24 | PBMC | 27.92 µM
CC=CCOc1cc(NC(=S)c2ccoc2C)ccc1OC | EC50 | - | IIIB | cytopathic effect / XTT | CEM + CEM-SS | 0.01 µM
COc1ccc(-c2ccc(N=Nc3c(N)nc(=O)n(C)c3N(C)C)cc2)cc1OC | EC50 | - | IIIB | MTT | MT-4 | >10.42 µM
O=C1C(=O)c2ccccc2C(O)=C1C1=C(Cl)C(=O)c2ccccc2C1=O | EC50 | - | IIIB | cytopathic effect / MTT | CEM | 2.6 µM
Cc1nc2[nH]c(C)c(C)c2c(-c2ccc(Cl)cc2)c1C(OC(C)(C)C)C(=O)O | EC50 | - | IIIB | MTT | MT-4 | 0.399 µM
COC(=O)C(C)(C)NP(=O)(OC[C@@H]1C=C[C@H](n2ccc3c(N)ncnc32)C1)Oc1ccccc1 | EC50 | - | IIIB | cytopathic effect / trypan blue | MT-4 | >490 µM
CC(=O)CCCCCCCCCCCCCCC(=O)OCCOCn1c(C)nc(C(C)C)c1Sc1cc(Cl)cc(Cl)c1 | EC50 | - | IIIB | cytopathic effect / MTT | MT-4 | 0.008 µg/mL
O=C1C(=O)c2ccccc2C(O)=C1C1=C(I)C(=O)c2ccccc2C1=O | EC50 | - | IIIB | cytopathic effect / MTT | CEM | 1.8 µM
CC1(C)C(c2ccc(C(=O)O)cc2)=CC[C@]2(C)CN(C(=O)c3cccc(C(=O)C4CC=C5C(C)(C)C(c6ccc(C(=O)O)cc6)=CC[C@]5(O)C4)c3)CC=C12 | EC50 | Renilla luciferase reporter Gag P373S | NL4-3 | luciferase / luminescence | MT-2 | <0.5 µM
Nc1nc2c(ncn2[C@@H]2O[C@H](COS(N)(=O)=O)[C@@H](O)[C@H]2O)c(=O)o1 | EC50 | - | IIIB | RT activity | U-937/HIV-1(IIIB) + U-937 | >100 µg/mL
CC[C@H](C)[C@H](NC(=O)c1ccccc1SSc1ccccc1C(=O)N[C@H](C(=O)O)[C@@H](C)CC)C(=O)O | EC50 | - | IIIB | cytopathic effect / XTT | CEM | 7 µM
Cn1c(-c2ccccc2F)cc(N)nc1=O | EC50 | - | IIIB | MTT | MT-4 | >13.27 µM
O=c1[nH]c(=O)n([C@H]2C=C(CO)CO2)cc1I | EC50 | - | - | - | MT-4 | >100 µg/mL
CC(C)C1=C2[C@H]3CC[C@@H]4[C@@]5(C)CC[C@H](OC(=O)[C@H]6C[C@@H](C(=O)O)C6(C)C)C(C)(C)[C@@H]5CC[C@@]4(C)[C@]3(C)CC[C@@]2([C@@H](O)CNCc2ccncc2)CC1=O | EC50 | - | 92HT599 | p24 / ELISA | MT-2 | <1 µM
COC1=C(C2=C(C3=C(O)C(=O)c4ccccc4C3=O)C(=O)c3ccccc3C2=O)C(=O)c2ccc3c(c2C1=O)C=CC(C)(C)O3 | EC50 | - | IIIB | cytopathic effect / MTT | CEM | 6.7 µM
COC(=O)[C@H](Cc1ccccc1)NP(=O)(OC[C@H]1C=C[C@@H](n2ccc3c(N)ncnc32)C1)Oc1ccccc1 | EC50 | - | IIIB | cytopathic effect / trypan blue | MT-4 | 0.3 µM
Nc1nc2c(ncn2[C@H]2CC[C@@H](CO)O2)c(=O)o1 | EC50 | - | IIIB | RT activity | U-937/HIV-1(IIIB) + U-937 | >100 µg/mL
CCCCCCCCNCC(O)CCCCCCCCCn1c(=O)c2c(ncn2C)n(C)c1=O | EC50 | - | JR-CSF | p24 | PBL | 1 µM
O=C1Nc2ccc(F)c(F)c2[C@@](/C=C/C2CC2)(C(F)(F)F)N1 | EC90 | - | RF | plaque count / virus yield | MT-2 | 0.0027 µM
Cc1nc2c(c(C)c(C)n2Cc2nccs2)c(-c2ccc(Cl)cc2)c1[C@H](OC(C)(C)C)C(=O)O | EC50 | - | IIIB | MTT | MT-4 | <0.683 µM
CC(C)C[C@@H](CCC(=O)O)NC(=O)c1ccccc1SSc1ccccc1C(=O)N[C@H](CCC(=O)O)CC(C)C | EC50 | - | IIIB | cytopathic effect / XTT | CEM | 4 µM
Cc1cc(C#N)cc(C)c1Oc1nc(Nc2ccc(B3OC(C)(C)C(C)(C)O3)cc2)nc2c1COC2 | EC50 | Y188L | - | MTT | MT-4 | 1.61 µM
Cn1c(-c2ccc(F)cc2)cc(N)nc1=O | EC50 | - | IIIB | MTT | MT-4 | >19.35 µM
Cc1occc1C(=S)Nc1ccc(Cl)c(C(=O)OC(C)C)c1 | EC50 | RT-D67N K70R Y181C T215Y K219Q | 4XAZT/Y181C (RT D67N K70R Y181C T215Y K219Q) | cytopathic effect / XTT | CEM + CEM-SS | 0.4 µM
C[C@@H](O)[C@H](N)C(=O)N[C@H](C(=O)N[C@@H](CO)C(=O)N[C@@H](Cc1ccc(O)cc1)C(=O)N[C@H](C(=O)O)[C@@H](C)O)[C@@H](C)O | EC50 | - | LAV | RT activity | A3.01 | <0.001 µM
Cc1occc1C(=S)Nc1ccc(Cl)c(/C=N/OC(C)(C)C)c1 | EC50 | RT-A98G | NL4-3 | cytopathic effect / XTT | CEM + CEM-SS | 0.7 µM
O=C(O)CCCCCCNC(=O)c1ccccc1SSc1ccccc1C(=O)NCCCCCCC(=O)O | EC50 | - | IIIB | cytopathic effect / XTT | CEM | 3.4 µM

Blank or dashed fields: not listed here. Lines come from different laboratories, so protocols vary.